Measured values from publication PMC7038234, “Screening of Natural Extracts for Inhibitors against Japanese Encephalitis Virus Infection” (Antimicrobial Agents and Chemotherapy, 2020).

System: JEV strain AT31
[1] = Primary screening of 1034 compounds in the natural extracts library
[2] = primary screening of 1034 compounds in the natural extracts library, red numbers = obvious cytotoxicity, blue numbers = insoluble in DMSO (colours not visible)

Row | Compound | Inhibition (%) [1] | also measured
1 | CCc1c2c(nc3ccccc13)-c1cc3c(c(=O)n1C2)COC(=O)[C@]3(O)CC [7-Ethylcamptothecin] | -69.3582% | –
2 | CC(=O)O[C@H]([C@@H](O)C[C@@H](C)C1=C2C[C@H](O)[C@H]3[C@@]4(C)CCC(=O)C(C)(C)[C@@H]4CC[C@]3(C)[C@@]2(C)CC1)C(C)(C)O [Alisol A 24-acetate] | 81.2833% | –
3 | CC(C)=C1C/C=C(\C)CC/C=C(\C)CC1=O [Germacrone] | 9.945% | –
4 | Echinacoside | – | Inhibition (%): 57.985%
5 | C[C@]12CC[C@H](O)C[C@H]1CC[C@@H]1[C@@H]2[C@H](O)C[C@]2(C)[C@@H](c3ccc(=O)oc3)CC[C@]12O [Gamabufalin] | 64.7453% | –
6 | CC1=C(CC[C@@H](C)CO[C@@H]2O[C@H](CO)[C@@H](O)[C@H](O)[C@H]2O)O[C@H]2C[C@H]3[C@@H]4CC=C5C[C@@H](O[C@@H]6O[C@H](CO)[C@@H](O[C@@H]7O[C@@H](C)[C@H](O)[C@@H](O)[C@H]7O)[C@H](O)[C@H]6O[C@@H]6O[C@@H](C)[C@H](O)[C@@H](O)[C@H]6O)CC[C@]5(C)[C@H]4CC[C@]3(C)[C@@H]12 [Pseudoprotodioscin] | 5.664% | –
7 | Cc1ccc(C(C)C)cc1 [4-Isopropyltoluene] | 22.7637% | –
8 | CCC/C=C1\OC(=O)C2=C[C@H]3CC[C@]21[C@]1(OC(=O)C2=C1CCC=C2)[C@@H]3CCC [Tokinolide B] | -27.7272% | –
9 | Anhydroicaritin | 86.4131% | –
10 | Cc1cc(=O)c2c(O)c3c(cc2o1)OC(C)(C)[C@@H](O[C@@H]1O[C@H](CO)[C@@H](O)[C@H](O)[C@H]1O)C3 [Sec-O-Glucosylhamaudol] | -3.913% | –
11 | C[C@H](CO[C@@H]1O[C@H](CO)[C@@H](O)[C@H](O)[C@H]1O)[C@H]1CC[C@@]2(CC[C@]3(C)[C@H](CC[C@@H]4[C@@]5(C)CC[C@H](O[C@@H]6O[C@H](CO)[C@@H](O)[C@H](O)[C@H]6O[C@@H]6OC[C@@H](O)[C@H](O)[C@H]6O)[C@@](C)(CO)[C@@H]5CC[C@]43C)[C@H]2O)CO1 [Hosenkoside F] | -16.7877% | –
12 | C=C1C(=O)O[C@@H]2/C=C(\C)[C@@H](OC(C)=O)C/C=C(\COC(C)=O)C[C@@H](OC(=O)/C(C)=C/CO)[C@@H]12 [Eupalinolide A] | -20.4277% | –
13 | OC[C@@H](O)[C@@H](O)[C@H](O)[C@H](O)CO [Mannitol] | 99.5413% | –
14 | CC[C@@]1(O)C(=O)OCc2c1cc1n(c2=O)Cc2cc3c(OC)cccc3nc2-1 [Methoxycamptothecin, 9-] | 26.0594% | –
15 | COc1ccc(-c2coc3cc(O[C@@H]4O[C@H](CO)[C@@H](O)[C@H](O)[C@H]4O)ccc3c2=O)cc1O [Calycosin-7-glucoside] | 4.742% | –
16 | COc1cc2ccc(=O)oc2c(OC)c1O [Isofraxidin] | 5.701% | –
17 | CC(C)=CCc1c(O)cc(O)c2c(=O)c(O[C@@H]3O[C@@H](C)[C@H](O)[C@@H](O)[C@H]3O)c(-c3ccc(O)cc3)oc12 [Baohuoside II] | -20.9028% | –
18 | C[C@H]1CC[C@@]2(O)C(C)(C)[C@@H]3CC[C@@]2(C)[C@H]1C3 [Patchouli alcohol] | 99.3924% | –
19 | O=c1cc(-c2ccccc2)oc2cc(O[C@@H]3O[C@H](CO)[C@@H](O)[C@H](O)[C@H]3O)c(O)c(O)c12 [Oroxin A] | 29.4273% | –
20 | C[C@@H]1O[C@@H](O[C@H]2[C@H](O[C@H]3[C@H](O[C@H]4CC[C@]5(C)[C@H]6CC=C7[C@@H]8CC(C)(C)CC[C@]8(C(=O)O)CC[C@@]7(C)[C@]6(C)CC[C@H]5C4(C)C)OC[C@H](O)[C@@H]3O)O[C@H](CO)[C@@H](O)[C@@H]2O)[C@H](O)[C@H](O)[C@H]1O [Raddeanin A] | 21.1914% | –
21 | Alisol B 23-acetate | 76.2599% | –
22 | CC1OC2OC3C(OCC(O)C3O)OC(=O)C34CCC(C)(C)CC3C3=CCC5C6(C)CC(O)C(OC7OC(CO)C(O)C(O)C7OC7OCC(OC(=O)CC(C)(O)CC(=O)OC1C(OC1OCC(O)C(O)C1O)C2O)C(O)C7O)C(C)(CO)C6CCC5(C)C3(C)CC4O (centres unmarked) [TubeiMoside II] | -2.287% | –
23 | C/C=C/c1cc(OC)c2c(c1)C(C)C(c1ccc(O)c(OC)c1)O2 (centres unmarked) [Dehydrodiisoeugenol] | 90.1156% | –
24 | Cl.O[C@H]1[C@H]2c3cc4c(cc3CN3CCC(=C[C@@H]1O)[C@H]23)OCO4 [Lycorine chloride] | -5.437% | –
25 | COc1cc(CCC(=O)CC(=O)CCc2ccc(O)c(OC)c2)ccc1O [Tetrahydrocucumin] | -6.898% | –
26 | COC1=C(C)C(=O)O/C1=C1\O[C@@H]2CCCN3[C@@H](CC[C@H]3[C@@H]3C[C@H](C)C(=O)O3)[C@H]2[C@@H]1C [protostemonine] | – | Inhibition (%) [2]: -19.6444%
27 | CCCCCC/C=C\CCCCCCCCCc1cccc(O)c1C(=O)O [Ginkgolic Acid C17:1] | 94.5029% | –

Row | Compound | Inhibition (%) [1] | also measured
28 | COc1cc(-c2oc3cc(O)cc(O)c3c(=O)c2O[C@@H]2O[C@H](CO[C@@H]3O[C@@H](C)[C@H](O)[C@@H](O)[C@H]3O)[C@@H](O)[C@H](O)[C@H]2O)ccc1O [Narcissoside] | 14.3798% | –
29 | C[C@H]1O[C@@H](O[C@H]2CC[C@@]3(C)[C@@H](CC[C@]4(C)[C@@H]3C=CC3=C5CC(C)(C)CC[C@]5(CO)[C@@H](O)C[C@]34C)[C@]2(C)CO)[C@H](O[C@@H]2O[C@H](CO)[C@@H](O)[C@H](O)[C@H]2O)[C@@H](O[C@@H]2O[C@H](CO)[C@@H](O)[C@H](O)[C@H]2O)[C@H]1O [Buddlejasaponin IVb] | -23.5828% | –
30 | C/C=C/C#CC#C[C@@H](O)[C@@H](/C=C/CCCO)O[C@@H]1O[C@H](CO)[C@@H](O)[C@H](O)[C@H]1O [Lobetyolin] | 7.5169% | –
31 | CC(=O)O[C@H]1[C@H](O[C@H]2CC[C@]34C[C@]35CC[C@]3(C)[C@@H]([C@@]6(C)CC[C@@H](C(C)(C)O)O6)[C@@H](O)C[C@@]3(C)[C@@H]5C[C@H](O[C@@H]3O[C@H](CO)[C@@H](O)[C@H](O)[C@H]3O)[C@H]4C2(C)C)OC[C@@H](O)[C@@H]1O [Astragaloside II] | -1.503% | –
32 | CC(=O)O[C@H]1C[C@]2(O)[C@@H]3CC[C@@H]4C[C@@H](O)CC[C@]4(C)[C@H]3CC[C@]2(C)[C@H]1c1ccc(=O)oc1 [Bufotaline] | 32.4793% | –
33 | O=C(O)c1cc(S(=O)(=O)O)ccc1O [Sulfosalicylic Acid] | -4.884% | –
34 | COc1c(/C=C/C(=O)c2ccc(O)cc2)ccc(O)c1CC=C(C)C [Licochalcone C] | -1.113% | –
35 | O=C(/C=C/c1ccc(O)c(O)c1)OC1CC(O)(C(=O)O)CC(O)C1OC(=O)/C=C/c1ccc(O)c(O)c1 (centres unmarked) | 86.3358% | –
36 | CCOC(=O)/C=C/c1ccc(O)c(OC)c1 [Ethyl 4'-hydroxy-3'-methoxycinnamate] | -25.256% | –
37 | COc1cc(C)c2c(=O)c(-c3ccccc3)coc2c1 [5-Methyl-7-methoxyisoflavone] | 50.4184% | –
38 | CC(=O)[C@H]1CC[C@H]2[C@@H]3CC=C4C[C@@H](O)CC[C@]4(C)[C@H]3CC[C@]12C [Pregnenolone] | 32.1775% | –
39 | Epimedin A | – | Inhibition (%) [2]: 0.5992%
40 | O=S(=O)([O-])[O-].c1c2c(cc3c1OCO3)-c1cc3ccc4c(c3c[n+]1CC2)OCO4.c1c2c(cc3c1OCO3)-c1cc3ccc4c(c3c[n+]1CC2)OCO4 | -4.972% | –
41 | COc1cc(/C=C/C(=O)OCC[N+](C)(C)C)cc(OC)c1O.N#C[S-] [Sinapine thiocyanate] | -6.947% | –
42 | O=C1c2c(O)cccc2[C@@H]([C@@H]2O[C@H](CO)[C@@H](O)[C@H](O)[C@H]2O)c2cc(CO)cc(O)c21 [Aloin B] | -4.345% | –
43 | CC(=O)O[C@H]1[C@H](OCCc2ccc(O)c(O)c2)O[C@H](CO)[C@@H](OC(=O)/C=C/c2ccc(O)c(O)c2)[C@@H]1O[C@@H]1O[C@@H](C)[C@H](O)[C@@H](O)[C@H]1O [2-Acetylacteoside] | 1.528% | –
44 | BulleyaconitineA | 35.2049% | –
45 | COc1ccc([C@@H]2CC(=O)c3c(O)cc(O[C@@H]4O[C@H](CO[C@@H]5O[C@@H](C)[C@H](O)[C@@H](O)[C@H]5O)[C@@H](O)[C@H](O)[C@H]4O)cc3O2)cc1 [Didymin] | -2.726% | –
46 | CC(=O)O[C@H]1Cc2cc3c(cc2[C@H]2N(C)Cc4c(ccc5c4OCO5)[C@@]12C)OCO3 [Acetylcorynoline] | 19.5944% | –
47 | CN[C@@H](C)[C@H]1[C@H](O)C[C@@]2(C)[C@@H]3CC[C@H]4C(C)(C)[C@@H](NC)CC[C@@]45C[C@@]35CC[C@]12C [Cyclovirobuxin D] | 4.225% | –
48 | COc1cc2c3c(cc4ccccc4c3c1OC)N(C)CC2 | 10.8704% | –
49 | COc1cc(/C=C/C(=O)[O-])ccc1O.[Na+] [Sodium ferulic] | -3.411% | –
50 | C=C1CC[C@@H]2[C@](C)(COC(=O)CCC(=O)O)[C@H](OC(=O)CCC(=O)O)CC[C@@]2(C)[C@@H]1/C=C/C1=CCOC1=O [Dehydroandrographolide succinate] | 5.39% | –
51 | CCCC[C@@H]1OC(=O)C2=C1CCC=C2 [Senkyunolide A] | 6.997% | –
52 | CC(C)=CCC[C@](C)(O)[C@H]1CC[C@]2(C)[C@@H]1[C@H](O)C[C@@H]1[C@@]3(C)CC[C@H](O)C(C)(C)[C@@H]3[C@@H](O)C[C@]12C [Protopanaxatriol] | 68.9647% | –
53 | COc1c(O[C@@H]2O[C@H](CO)[C@@H](O)[C@H](O)[C@H]2O)cc2oc(-c3ccc(O)cc3)cc(=O)c2c1O [Homoplantaginin] | -25.4311% | –

Where two headings read alike, the source gives them in different places.
